Experimental data published in the supplement of paper PMC3578754.
Fold change is the IC50 on the isolate divided by the IC50 on a reference virus; 1 = unchanged, higher = more resistant. Changes are given against the subtype B consensus. No active / inactive call. The values were gathered from many studies (numbered anew) with different assays, which the source does not name. Most viruses are clinical isolates; some are laboratory strains or clones with known resistance changes. Isolates with mixed residues are left out; stretches that were not sequenced show no change. Round top values that many isolates share are read here as limits; other very high values and 0.1 may be limits too.

Experiments:
Assay in all cases: fold change of IC50 against reference virus; higher = more resistant
efavirenz = compound: O=C1Nc2ccc(Cl)cc2[C@@](C#CC2CC2)(C(F)(F)F)O1 [efavirenz]
Method: (§1)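 Cell-culture drug susceptibility tests of virus bearing the reverse transcriptase of each isolate, gathered from many studies.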

abacavir = compound: Nc1nc(NC2CC2)c2ncn([C@H]3C=C[C@@H](CO)C3)c2n1 [abacavir]
Method: as §1

delavirdine = compound: CC(C)Nc1cccnc1N1CCN(C(=O)c2cc3cc(NS(C)(=O)=O)ccc3[nH]2)CC1 [delavirdine]
Method: as §1

nevirapine = compound: Cc1ccnc2c1NC(=O)c1cccnc1N2C1CC1 [nevirapine]
Method: as §1

zidovudine = compound: Cc1cn([C@H]2C[C@H](N=[N+]=[N-])[C@@H](CO)O2)c(=O)[nH]c1=O [zidovudine]
Method: as §1

zalcitabine = compound: Nc1ccn([C@H]2CC[C@@H](CO)O2)c(=O)n1 [zalcitabine]
Method: as §1

stavudine = compound: Cc1cn([C@H]2C=C[C@@H](CO)O2)c(=O)[nH]c1=O [stavudine]
Method: as §1

didanosine = compound: O=c1[nH]cnc2c1ncn2[C@H]1CC[C@@H](CO)O1 [didanosine]
Method: as §1

Row | Test System | fold change of IC50 against reference virus (efavirenz) | fold change of IC50 against reference virus (abacavir) | fold change of IC50 against reference virus (delavirdine) | fold change of IC50 against reference virus (nevirapine) | fold change of IC50 against reference virus (zidovudine) | fold change of IC50 against reference virus (zalcitabine) | fold change of IC50 against reference virus (stavudine) | fold change of IC50 against reference virus (didanosine)
1 | HIV-1 isolate 329 (reverse transcriptase changes: V35M T39A K70R D123E A158S I178L V179I V245E, study 40) | 4 | 1 | 17 | 8 | 9 | 2 | 1 | 2
2 | HIV-1 isolate 846 (reverse transcriptase changes: K102Q Q151M S162C K277R, study 110) | 1.9 | 5.7 | 2.7 | 1.9 | 7.4 | 2.2 | 2.9 | 6.8
3 | HIV-1 isolate 441 (reverse transcriptase changes: K70R I135T M184V R211K F214L, study 28) | 0.4 | 4.3 | 0.4 | 0.4 | 0.5 | 2.5 | 0.7 | 1.4
4 | HIV-1 isolate 324 (reverse transcriptase changes: K22R L74V K102Q K103N I135L M184V Y188L T200A R211E V241A, study 40) | 186 | 11 | 208 | 167 | 1 | 2 | 1 | 7
5 | HIV-1 isolate 609 (reverse transcriptase changes: K102Q K122E D177E I178M M184V V245E A272P K277R, study 112) | 1 | 4.6 | 1 | 1.1 | 0.6 | 2.2 | 1 | 1.6
6 | HIV-1 isolate 120 (reverse transcriptase changes: V60I I142V M184V Q207H R211K, study 28) | 0.8 | 4 | 1.1 | 0.8 | 0.6 | 1.9 | 0.9 | 1.4
7 | HIV-1 isolate 1382 (reverse transcriptase changes: V118I D123E I135T R211K F214L A272P K281R T286P I293V E297K, study 15) | 0.7 | 1 | 0.8 | 0.9 | 1 | 0.8 | 0.9 | 1.1
8 | HIV-1 isolate 551 (reverse transcriptase changes: D123E I135T V179I M184V Y188L I202V F214L, study 40) | 110 | 3 | 7 | 333 | 5 | 2 | 1 | 3
9 | HIV-1 isolate 976 (reverse transcriptase changes: M41L R83K D123E M184V G196E R211K T215Y A272P E297K, study 109) | 0.2 | 2.5 | 0.2 | 0.3 | 2.2 | 1.6 | 1.2 | 1.4
10 | HIV-1 isolate 454 (reverse transcriptase changes: M41L D67N K70R K102Q S162C T215Y K219Q K277R, study 110) | 0.4 | 2.8 | 0.5 | 0.5 | 54.6 | 0.8 | 1.9 | 0.9
11 | HIV-1 isolate 239 (reverse transcriptase changes: P4S T39A A62V K65R D67N S68R T69N V75I F77L K103N V108I F116Y K122E Q151M K173T D177E I178L Y181S M184V Q207E R211K K219E S251R W252K T253G, study 40) | 40 | 17 | 35 | 100 | 1000 | 36 | 33 | 60
12 | HIV-1 isolate 1588 (reverse transcriptase changes: V35I E40F M41L K43E S68G L74I A98G K103N V108I V118I K122E S162C M184V G190A L210W R211K T215Y K219N A272P K277R T286P A288P L289N, study 40) | 40 | 10 | 35 | 69 | 103 | 2 | 2 | 6
13 | HIV-1 isolate 723 (reverse transcriptase changes: K49R L92F A98S K102Q K103R D121H S162D K166R V179I M184V T200A R211K F214L, study 28) | 0.2 | 4.2 | 0.5 | 1 | 1 | 2.3 | 1 | 1.6
14 | HIV-1 isolate 410 (reverse transcriptase changes: R83K D123E V245M D250E A272P I293V V317A M357T A376T E399D A400T, study 54) | 0.8 | 1 | 1.9 | 1.1 | 1.1 | 1 | 1 | 1
15 | HIV-1 isolate 198 (reverse transcriptase changes: V35L M41L A98G K103N K104N V118I K122E I142L A158P Y188L I202V L210W R211K T215Y V245M, study 40) | 63 | 3 | 201 | 396 | 125 | 2 | 1 | 7
16 | HIV-1 isolate 136 (reverse transcriptase changes: V60I D121Y K122E D177E I178V I202V V245E A272P K277R I293V P294S, study 40) | 2 | 1 | 3 | 1 | 1 | 1 | 1 | 1
17 | HIV-1 isolate 556 (reverse transcriptase changes: K102Q S162C M184V K277R, study 110) | 0.6 | 3.8 | 0.6 | 0.6 | 0.4 | 1.4 | 0.8 | 0.9
18 | HIV-1 isolate 1052 (reverse transcriptase changes: A62V S68G T69K K70G V75I F77L Y115F F116Y K122E Q151M K166R D177E M184V R211K K277R I293V E297K, study 112) | 0.8 | 20 | 1.4 | 0.6 | 228 | 65.4 | 11.3 | 20.1
19 | HIV-1 isolate 534 (reverse transcriptase changes: M41L K102Q S162C T215Y K277R, study 110) | 0.5 | 2.6 | 0.3 | 1 | 11.2 | 1 | 1.5 | 0.9
20 | HIV-1 isolate 292 (reverse transcriptase changes: V35I I50F R83K D123E I135T A272P, study 40) | 1 | 1 | 1 | 1 | 1 | 1 | 1 | 1
21 | HIV-1 isolate 1393 (reverse transcriptase changes: R83K M184V R211K, study 28) | 0.5 | 2.8 | 0.9 | 0.5 | 0.5 | 1.7 | 0.8 | 1.3
22 | HIV-1 isolate 1092 (reverse transcriptase changes: K65R K102Q S162C K277R, study 110) | 0.8 | 2.6 | 1.1 | 1 | 0.4 | 2.5 | 1.7 | 1.8
23 | HIV-1 isolate 770 (reverse transcriptase changes: M41L E44D E53D A98S K122A E169D D177E M184V G196E T200A Q207E L210W T215Y, study 112) | 0.3 | 7.7 | 0.2 | 0.5 | 4.4 | 2.4 | 1.7 | 1.5
24 | HIV-1 isolate 250 (reverse transcriptase changes: V35R I142V K173Q V245T, study 40) | 1 | 1 | 8 | 3 | 22 | 1 | 2 | 1
25 | HIV-1 isolate 1426 (reverse transcriptase changes: D67N K70R L74V A98S L100I K103N I135T K166R M184V R211K F214L K219Q H221Y L228R V245M A272P K277R T286A E297K, study 15) | 1500 | 7.4 | 400 | 215 | 1.6 | 2.3 | 1.3 | 2.4
